{"source": "PubChem BioAssay AID624099 | ICCB-Longwood – 2012", "screen": "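Host factors E2 relies on to silence an HPV18 LCR reporter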 (primary screen)", "cell system": "human C33A cervical carcinoma cells (HPV-negative) stably expressing BPV1 E2 and an HPV18 LCR luciferase reporter", "reagent": "siRNA pool against human genes, 40 nM", "time to read-out": "72 h", "detection": "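Per-well luciferase luminescence, z-scored on each plate against the plate mean and SD with control wells left out, then averaged across three replicate plates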", "direction": "mean z-score and z-score: higher = stronger reporter signal, weaker E2 silencing", "active means": "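Mean z ≥ 2 together with z ≥ 2 in two or more of the three replicates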", "note": "Here is an unselected part of about 21,000 reagents tested. 497 of all reagents (2.4%) were called active. 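Higher z means weaker E2 silencing; only reporter increases were scored, and knock-downs that hurt cell survival may mask genuine repressor factors.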"}
{"Gene":"DCAF12","mean z-score":0.04,"z-score, replicate A":0.2,"z-score, replicate B":0.12,"z-score, replicate C":-0.2,"call":"inactive"}
{"Gene":"SORDL (retired record)","mean z-score":1.02,"z-score, replicate A":1.26,"z-score, replicate B":0.68,"z-score, replicate C":1.13,"call":"inactive"}
{"Gene":"GABRQ","mean z-score":-1.8,"z-score, replicate A":-1.85,"z-score, replicate B":-1.63,"z-score, replicate C":-1.93,"call":"inactive"}
{"Gene":"PATZ1","mean z-score":-0.23,"z-score, replicate A":-0.28,"z-score, replicate B":-0.14,"z-score, replicate C":-0.27,"call":"inactive"}

Next part (2 carried over from the part before).
{"Gene":"GABRQ","mean z-score":-1.8,"z-score, replicate A":-1.85,"z-score, replicate B":-1.63,"z-score, replicate C":-1.93,"call":"inactive"}
{"Gene":"PATZ1","mean z-score":-0.23,"z-score, replicate A":-0.28,"z-score, replicate B":-0.14,"z-score, replicate C":-0.27,"call":"inactive"}
{"Gene":"UBTD2","mean z-score":1.12,"z-score, replicate A":1.19,"z-score, replicate B":1.13,"z-score, replicate C":1.04,"call":"inactive"}
{"Gene":"FRRS1L","mean z-score":0.82,"z-score, replicate A":0.7,"z-score, replicate B":0.84,"z-score, replicate C":0.93,"call":"inactive"}
{"Gene":"CAPNS1","mean z-score":0.58,"z-score, replicate A":0.36,"z-score, replicate B":0.87,"z-score, replicate C":0.49,"call":"inactive"}
{"Gene":"OR4A47","mean z-score":-0.36,"z-score, replicate A":-0.69,"z-score, replicate B":-0.27,"z-score, replicate C":-0.1,"call":"inactive"}
{"Gene":"CHST6","mean z-score":-1.34,"z-score, replicate A":-1.05,"z-score, replicate B":-1.04,"z-score, replicate C":-1.93,"call":"inactive"}
{"Gene":"CDH15","mean z-score":-0.53,"z-score, replicate A":-0.9,"z-score, replicate B":-0.41,"z-score, replicate C":-0.28,"call":"inactive"}
{"Gene":"NR2E3","mean z-score":0.28,"z-score, replicate A":0.37,"z-score, replicate B":0.42,"z-score, replicate C":0.05,"call":"inactive"}
{"Gene":"OLIG3","mean z-score":-1.62,"z-score, replicate A":-1.49,"z-score, replicate B":-1.59,"z-score, replicate C":-1.79,"call":"inactive"}
